# Assays:
# [1] = target: human N-type calcium channel (human) (UniProt Q00975); experiment: cell-based or functional assay
# [2] = target: human N-type calcium channel (human), Q00975; experiment: cell-based or functional assay
Molecule,"Blocking activity (%), 30 nM peptide [1] [%]","Recovery (%), 30 nM peptide [1] [%]","Blocking activity (%), 30 nM peptide [2] [%]","Recovery (%), 30 nM peptide [2] [%]"
ω-conotoxin FVIA,94.7,69.7,–,–
CKGKGAKCSRLMYDCCTGSCRSGKC (modifications not checked) [ω-conotoxin MVIIA],–,–,81.5,39.5
